# Test results as given in ChEMBL document CHEMBL3244068 (J Med Chem, 1978).
# What was measured:
# [1] = system: P388; assay: Antitumor activity against mouse P388 cells allografted in mouse assessed as dose required to produce T/C of 125% administered for 18 days
# [2] = system: P388; assay: Antitumor activity against mouse P388 cells allografted in mouse assessed as dose required to produce T/C of 180% administered for 18 days
compound,measurement,setting,value
O=CCCCc1ccc(N(CCCl)CCCl)cc1,log(1/C),[1],5.96
same,log(1/C),[2],4.72
